We go through 12 molecules from the supplement of paper PMC9931576.

Human monoclonal antibodies against the spike receptor-binding domain (heavy:light variable regions). IC50 against pseudoviruses bearing the spike of naturally observed variants; lower = stronger; >10 µg/ml means not reached at the top dose. No active / inactive call. The stated detection limit is 0.0005 µg/ml; values near or below 0.001 µg/ml lie at the floor of the assay.

What all share (experiment): pseudovirus neutralization IC50; higher = weaker neutralization
The target of assay [1] is SARS-CoV-2 Omicron BA.1 spike pseudovirus. The method, then: (§1)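 Single-round VSV luciferase pseudovirus mixed with antibody dilutions for 1 h and put on Huh-7 cells for about a day; IC50 from the dose curve.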
Assay [2] deals with SARS-CoV-2 Omicron BA.2 spike pseudovirus. The protocol: as §1
For assay [3], the target named is SARS-CoV-2 Omicron BA.2.75 spike pseudovirus. The method, then: as §1
Assay [4] deals with SARS-CoV-2 Omicron BA.5 spike pseudovirus. The protocol:
as §1

Assay [5] has as its target SARS-CoV-2 Omicron BQ.1.1 spike pseudovirus. The method, then:
as §1

The target in assay [6] is SARS-CoV-2 Omicron XBB spike pseudovirus. The method, then:
as §1

In assay [7] the target is SARS-CoV-2 early D614G spike pseudovirus. The protocol:
as §1

B1: BD57-0184 (protein)
chain 1: EVQLVQSGTEVKKPGESLKISCKGSGFSFISYWIGWVRQMPGKGLEWMGIIYPGDSDTIYSPSFQGQVTISADKSISAAYLQWNSLQASDTAMYYCARRDSGSYSGFFDSWGQGTLVTVSS
chain 2: QSVLTQPPSASGTPGQRVTISCSGSSSNIGSNPVSWYQQLPGTAPKLLIYNNNQRPSGVPDRFSGSKAGTSASLAMSGLQSEDEADYYCASWDDSLNGGVFGGGTKLSVL
Consider B1, for which the “pseudovirus neutralization IC50” value in assay [1] came out at 0.422 µg/mL; in assay [2] it was 0.615 µg/mL; in assay [3], 0.59 µg/mL; in assay [4], 0.495 µg/mL; in assay [5] it was 0.654 µg/mL; in assay [6] it was 1 µg/mL. In addition, in assay [7], the “pseudovirus neutralization IC50” value stood at 0.952 µg/mL.

B2: BD57-0168 (protein)
chain 1: QVQLVQSGAEVKKPGSSVKVSCKTSGGSFGTYGISWVRQAPGQGLEWMGGIIPMVGRPTYAQRFQGRVTITADESTTTAYLEMRSLTFQDTAVYYCARDSTLREWKPGLTWFDPWGQGTLVTVSS
chain 2: DIQMTQSPSSLSASVGDRVTFTCRASQSISDFLNWYQQKPGEAPKLLIYAASTLQGGVPSRFSGSGSGTDFTLTISSLQPEDFATYYCQQSYSAPRTFGQGTKVDIK
B2: the “pseudovirus neutralization IC50” value in assay [1] is 0.233 µg/mL; in assay [2], 0.235 µg/mL; in assay [3], 0.00124 µg/mL; in assay [4] it was 0.817 µg/mL; in assay [5] it was 0.855 µg/mL; in assay [6], > 10 µg/mL. Moreover, the “pseudovirus neutralization IC50” value in assay [7] worked out at 0.00073 µg/mL.

B3: BD57-0181 (protein)
chain 1: QVQLQESGPGLVKPSQALSLTCSVSGGSISSGGHYWNWIRQHPEKGLEWIGNIYYSGSTNYNPSLKRRVTMSVDTSKNQFSLSLTSVTAADTAVYYCARDFGGNANYFAFWGQGTLVTVSS
chain 2: DIQMTQSPSSLSASVGDKVTITCQASQDISNYLSWYQQKPGKAPKLLIYDASNLETGVSLRFSGRGSGTHFTFTISSLQPEDIATYFCQQYNNVPITFGQGTRLEIK
For B3, the “pseudovirus neutralization IC50” value in assay [1] is 1.6 µg/mL; in assay [2] it was 1.67 µg/mL; in assay [3], 1.67 µg/mL; in assay [4], > 10 µg/mL; in assay [5], > 10 µg/mL; in assay [6], 1.4 µg/mL. In addition, the “pseudovirus neutralization IC50” value in assay [7] was > 10 µg/mL.

B4: BD57-0162 (protein)
chain 1: QVQLVQSGAEVKKPGSSVKVSCKASGGTFSNYGFTWVRQAPGQGLEWVGGIIPMFGTLNYGQRVHDRVTITADESTSTVYMELSSLISEDTAIYYCIARWARANYYSYFLDVWAKGTTVTVSS
chain 2: EIVMTQSPATLSVSPGERATLSCRASQSISTNLAWYQQKPGQAPRLLIYGASTRATGIPARFSGSGSETEFTLIISSLQSEDSGVYYCQRYNNWPLWTFGQGTQVEIK
Take B4: the “pseudovirus neutralization IC50” value in assay [1], in assay [2], in assay [3], in assay [4], in assay [5] and in assay [6] was > 10 µg/mL each time. Besides, the “pseudovirus neutralization IC50” value in assay [7] is > 10 µg/mL.

B5: BD57-0186 (protein)
chain 1: QVQLVQSGAEVKKPGSSVRVSCKASGGTLSNNAINWVRQAPGQGLEWMGRLTPILGTANYAQRFQGRVTITADKSTNTAYMDLSSLRSEDTAVYYCARGVVVVSATDDYSYYYGLDVWGQGTTVTVSS
chain 2: SYELTQPPSVSVSPGQTARITCSGDALPKQYAYWYQQKPGQAPVMVINKDSERPSEIPERFSGSTSGTTVTLTISGVQAEDEADYYCQSADSAGTSVLFGGGTKLTVL
With B5, the “pseudovirus neutralization IC50” value stood at 0.341 µg/mL in assay [1]; 0.615 µg/mL in assay [2]; 0.421 µg/mL in assay [3]; 0.944 µg/mL in assay [4]; 2.2 µg/mL in assay [5]; 1.96 µg/mL in assay [6]. Moreover, in assay [7], the “pseudovirus neutralization IC50” value is 1.25 µg/mL.

B6: BD57-0167 (protein)
chain 1: EVQLVQSGAEVKKSGESLEISCKASGYSFNTYWIGWVRQMPGRGLEWMGIVYPGDSDTNYSPSFQGQVTISADKSISTAYLQWSSLKASDTAIYYCARRSQTVGNFDYWGQGILVTVSS
chain 2: SYVLTQTPSVSVAPGKTASITCGGKNIGSKSVHWYQQRPGQAPILVISFDHDRPSGIPERFSGSKSGNTATLTISRVEAGDEADYYCQVWDSNSDLYVFGPGTSVTVL
With B6, the “pseudovirus neutralization IC50” value in assay [1] was found to be 0.538 µg/mL; in assay [2], 1.03 µg/mL; in assay [3], 0.49 µg/mL; in assay [4], 0.682 µg/mL; in assay [5] it was 0.796 µg/mL; in assay [6] it was 0.825 µg/mL. Further, the “pseudovirus neutralization IC50” value in assay [7] was 1.82 µg/mL.

B7: BD57-0176 (protein)
chain 1: QVQLQESGPGLVKPSETLSLTCTVSGGSITGYYWSWIRQPPGKRLESIAYFYSTGNTNYNPSLESRVTISVDTSKNQISLKLTSVTVADTAIYYCARHPTVSDSRYDLYIDYWGQGTLVTVSS
chain 2: DIQMTQSPSILSASVGDRVTITCRASQIISGWLAWYQQKPGKAPKLLIYEASRLQTGVPSRFSGSGYGTEFTLTISSLQPGDFATYYCQEYKTFSPWTFGPGTKVEIK
B7: the “pseudovirus neutralization IC50” value was > 10 µg/mL in assay [1]; 0.0374 µg/mL in assay [2]; > 10 µg/mL in assay [3]; 0.0396 µg/mL in assay [4]; 2.37 µg/mL in assay [5]; > 10 µg/mL in assay [6]. In assay [7], the “pseudovirus neutralization IC50” value is 0.000892 µg/mL.

B8: BD57-0183 (protein)
chain 1: EVQLVAWGGGLVQPGRSLRLSCAASGFTFDDYAMHWVRQAPGKGLEWVSSFNRKTATILYADSVKGRFTISRDSAKNSLFLQMNSLRAEDTAFYYCVKSPAVVADDYYFDYWGQGTLVTVSS
chain 2: SYDLTQPPSVSVSPGQTARITCSGDAFPNLYSYWYQQKPGQAPVLVIYKDIERPSGIPERFSGSTSGTTVTLTISGVQAEDEADYYCQSADSSGTRFGGGTKLTVL
Regarding B8, the “pseudovirus neutralization IC50” value in assay [1], in assay [2], in assay [3], in assay [4], in assay [5] and in assay [6] was > 10 µg/mL throughout. Moreover, the “pseudovirus neutralization IC50” value in assay [7] was > 10 µg/mL.

B9: BD57-0157 (protein)
chain 1: QVQLVQSGAEVKKPGSSVKVSCRASGDTFNNFPVSWVRQAPGQGLEWMGGIIPIFGTANYAHKFQGRVTITADESTSTVYMELSSLRSEDTAIYYCARDVWYCSSTSCDSGGYYYSYMDVWGKGTTVTVSS
chain 2: EIVLTQSPGTLSLSPGERATLSCRASQSLGNIYLAWYQQKPGQAPRLLIFGASSRATGIPDRFSGSGSGTDFTLTISSLEPEDFAVYYCQQYGSSPITFGQGTRLEIK
For the molecule B9, the “pseudovirus neutralization IC50” value was 0.699 µg/mL in assay [1]; 1.28 µg/mL in assay [2]; 0.943 µg/mL in assay [3]; 1.39 µg/mL in assay [4]; > 10 µg/mL in assay [5]; > 10 µg/mL in assay [6]. Moreover, in assay [7], the “pseudovirus neutralization IC50” value was > 10 µg/mL.

B10: BD57-0164 (protein)
chain 1: EVQLVESGGGLVKPGGSLRLSCAASGITFTNAWVTWVRQTPGKRLEWVGRIKSKTDGGTTDYTAPVKGRFTISRDDSKNTVYLQMNSLKTDDTAVYYCTTVSWIHQWLVGEDNAFDIWGQGTMVTVSS
chain 2: EIVLTQSPGTLSLSPGERATLSCRASQTFSSTYLAWYQQKPGQAPRLLIYGALSRASGIPDRFSGSGSGTDFTLTISRLEPEDFAVYYCQQYYSSPYTFGQGTKLEIK
As for B10, the “pseudovirus neutralization IC50” value is 0.54 µg/mL in assay [1]; 1.02 µg/mL in assay [2]; 0.658 µg/mL in assay [3]; 2.23 µg/mL in assay [4]; 2.3 µg/mL in assay [5]; 1.92 µg/mL in assay [6]. Further, the “pseudovirus neutralization IC50” value in assay [7] came to 2.8 µg/mL.

B11: BD57-0171 (protein)
chain 1: EVQLVQSGAEVKKPGESLKISCKGFGYSFSNYWIGWVRQMPGKGLEWMGIIYNVDSDTRYNPAFQGQVTISADNSISTAYLQWSSLKASDSAIYYCVRQHTSGWWAGDSWGQGTLVTVSS
chain 2: EIVMTQSPATLSVSPGEGATLSCRASQSVSSNLAWYQQKPGQAPRLLFYGASTRATGIPARFSASGSGTEFTLSISSLQSEDFAVYYCQQYNNWPPWTFGQGTKVDIK
B11: the “pseudovirus neutralization IC50” value was > 10 µg/mL in assay [1]; > 10 µg/mL in assay [2]; > 10 µg/mL in assay [3]; 1.81 µg/mL in assay [4]; > 10 µg/mL in assay [5]; > 10 µg/mL in assay [6]. The “pseudovirus neutralization IC50” value in assay [7] was found to be 0.00312 µg/mL.

B12: BD57-0177 (protein)
chain 1: QVQLVQSGVEVKKPGSSVKVSCQASGGSFSSYAISWMRQAPGQGLEWLGGIIPIFGTAHYAQKFQGRVTITADRSTTTAYMEMRSLTSEDTAVYYCAKDSPDRSSSPARPSFYYYEMDVWGQGTTVIVSS
chain 2: DIQMTQSPSPLSASVGDRVTITCQASQAISNHLNWYQQKPGRAPRLLIYDASILETGVPSRFSASGSGTDFTFTISSLQPEDIATYYCQQYDDLPITFGQGTRLEIK
Turning to B12, the “pseudovirus neutralization IC50” value was 0.0762 µg/mL in assay [1]; 0.057 µg/mL in assay [2]; 0.0721 µg/mL in assay [3]; 0.0832 µg/mL in assay [4]; > 10 µg/mL in assay [5]; > 10 µg/mL in assay [6]. The “pseudovirus neutralization IC50” value in assay [7] was 0.027 µg/mL.
